Laboratory results reported in paper PMC4357719, “Roles of Rad51 paralogs for promoting homologous recombination in Leishmania infantum”.

Experiments:
Assay in all cases: competition EMSA
Conditions in all cases: 25 mM MOPS pH 7.0, 0.2% Tween-20, 1 mM CaCl2, 2 mM DTT, 25 nM 32P-DNA, 37 C 10 min, then 0.2% glutaraldehyde 15 min, 8% TBE acrylamide gel, recombinant protein
[1] = target: T1, LiRad51-6 (Leishmania infantum) (UniProt A4I499)
T1 sequence (looked up, limits assumed): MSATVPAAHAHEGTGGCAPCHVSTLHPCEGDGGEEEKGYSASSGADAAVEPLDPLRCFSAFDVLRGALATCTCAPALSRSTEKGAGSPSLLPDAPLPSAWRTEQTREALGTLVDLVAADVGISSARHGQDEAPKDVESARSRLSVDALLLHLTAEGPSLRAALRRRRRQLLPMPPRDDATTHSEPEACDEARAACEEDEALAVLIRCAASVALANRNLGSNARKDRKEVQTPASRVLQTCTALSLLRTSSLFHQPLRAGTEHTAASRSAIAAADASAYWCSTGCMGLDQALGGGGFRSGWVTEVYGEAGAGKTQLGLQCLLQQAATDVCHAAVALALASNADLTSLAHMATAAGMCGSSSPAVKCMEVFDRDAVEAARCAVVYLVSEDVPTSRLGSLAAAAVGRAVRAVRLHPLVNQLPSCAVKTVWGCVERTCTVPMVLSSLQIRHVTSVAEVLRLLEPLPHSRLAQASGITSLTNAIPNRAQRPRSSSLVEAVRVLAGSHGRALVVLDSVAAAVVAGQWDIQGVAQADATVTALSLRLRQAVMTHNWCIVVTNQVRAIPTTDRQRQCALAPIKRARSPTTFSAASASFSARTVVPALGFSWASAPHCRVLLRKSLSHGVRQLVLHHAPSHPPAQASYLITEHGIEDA

[2] = target: T2, LiRad51-4 (Leishmania infantum) (UniProt A4HUT5)
T2 sequence (looked up, limits assumed): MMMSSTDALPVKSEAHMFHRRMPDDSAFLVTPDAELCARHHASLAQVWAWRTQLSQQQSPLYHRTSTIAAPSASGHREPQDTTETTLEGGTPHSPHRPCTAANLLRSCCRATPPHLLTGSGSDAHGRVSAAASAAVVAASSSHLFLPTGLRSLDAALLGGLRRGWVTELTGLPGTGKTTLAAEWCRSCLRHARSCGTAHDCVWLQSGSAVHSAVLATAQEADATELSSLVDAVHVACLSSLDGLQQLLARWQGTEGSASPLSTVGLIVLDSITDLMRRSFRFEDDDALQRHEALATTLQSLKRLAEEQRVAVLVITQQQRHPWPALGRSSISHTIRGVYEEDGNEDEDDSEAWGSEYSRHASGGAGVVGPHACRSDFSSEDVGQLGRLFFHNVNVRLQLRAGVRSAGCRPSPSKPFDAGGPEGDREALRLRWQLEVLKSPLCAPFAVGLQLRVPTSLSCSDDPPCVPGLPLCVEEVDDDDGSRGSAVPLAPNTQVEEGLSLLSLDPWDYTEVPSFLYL

[3] = target: T3, LiRad51-3 (Leishmania infantum) (UniProt E9AHR7)
T3 sequence (looked up, limits assumed): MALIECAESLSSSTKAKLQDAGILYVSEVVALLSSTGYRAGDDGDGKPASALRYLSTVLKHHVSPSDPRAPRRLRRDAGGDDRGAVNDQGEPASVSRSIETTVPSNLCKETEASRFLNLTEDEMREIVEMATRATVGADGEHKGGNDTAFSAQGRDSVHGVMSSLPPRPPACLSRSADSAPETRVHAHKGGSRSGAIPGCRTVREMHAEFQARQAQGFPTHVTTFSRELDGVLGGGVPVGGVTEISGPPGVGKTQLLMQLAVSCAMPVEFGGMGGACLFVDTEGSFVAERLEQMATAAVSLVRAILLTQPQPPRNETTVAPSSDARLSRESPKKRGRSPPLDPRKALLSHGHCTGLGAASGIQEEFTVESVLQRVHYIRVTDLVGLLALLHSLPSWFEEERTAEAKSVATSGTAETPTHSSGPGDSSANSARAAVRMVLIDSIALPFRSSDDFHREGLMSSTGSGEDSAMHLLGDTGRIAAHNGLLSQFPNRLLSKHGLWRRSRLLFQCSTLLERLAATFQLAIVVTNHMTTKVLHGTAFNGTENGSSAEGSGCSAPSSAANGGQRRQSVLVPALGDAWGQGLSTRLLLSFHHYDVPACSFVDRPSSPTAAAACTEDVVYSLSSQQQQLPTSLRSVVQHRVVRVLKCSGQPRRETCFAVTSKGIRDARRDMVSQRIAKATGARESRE

[4] = mixed with ssDNA, 1 mM CaCl2, value given for tailed DNA, label: 32P on strand 1
[5] = mixed with tailed DNA, label: 32P, single-stranded DNA

Row | Sequence | binding signal (% bound at 100 nM) [1, 4] | binding signal (% bound at 100 nM) [2, 4] | binding signal (% bound at 100 nM) [3, 4] | binding result [1, 5] | binding result [2, 5] | binding result [3, 5]
1 | GGGCGAATTGGGCCCGACGTCGCATGCTCCTCTAGACTCGAGGAATTCGGTACCCCGGGTTCGAAATCGATAAGCTTACAGTCTCCATTTAAAGGACAAG / CTTGTCCTTTAAATGGAGACTGTAAGCTTATCGATTTCGAACCCGGGGTA [5'-tailed DNA (JYM696/JYM697)] | 70 | 40 | 70 |  |  | 
2 | GGGCGAATTGGGCCCGACGTCGCATGCTCCTCTAGACTCGAGGAATTCGGTACCCCGGGTTCGAAATCGATAAGCTTACAGTCTCCATTTAAAGGACAAG [ssDNA of tailed-DNA competition (JYM696, inferred)] |  |  |  | binds more weakly | binds more weakly | binds more weakly

For at least one entry, the source does not settle the construct or the ends of the probe. Weaker means in comparison with the reference protein, sequence or condition of that experiment. At least one verdict was read from the data and is not stated in words by the source. Where a protein sequence is shown, tags need not be part of it.
